Measurements reported in PubChem BioAssay AID624099 (ICCB-Longwood, 2012).

Screen: 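Human genes that papillomavirus E2 requires to repress the HPV18 LCR promoter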 (primary screen)
Cell system: human C33A cervical carcinoma cells (HPV-negative) stably expressing BPV1 E2 and an HPV18 LCR luciferase reporter
Reagent: siRNA pool against human genes, 40 nM
Timing: 72 h
Read-out: 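HPV18 LCR reporter light per well, converted to plate-wise z-scores that exclude control wells, and averaged over triplicate plates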
Direction: mean z-score and z-score: higher = stronger reporter signal, weaker E2 silencing
Active means: 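Hit if mean z-score reaches 2 and two or more of three replicate z-scores also reach 2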
Here is a random part of about 21,000 deposited reagents. In the full data, 497 (2.4%) got an active call. 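Higher z means weaker E2 silencing; only reporter increases were scored, and knock-downs that hurt cell survival may mask genuine repressor factors.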 A number with no mark means an inactive call.

gene knocked down	mean z-score	z-score, replicate A	z-score, replicate B	z-score, replicate C
FHIP1B	-0.16	-0.39	0.07	-0.17
RBMXL2	-0.42	-0.66	-0.46	-0.15
SEC11B	-0.46	-0.67	-0.18	-0.54
CALB1	0.83	0.66	0.95	0.88
GABRG2	1.32	1.14	1.45	1.36
INKA2	-2.05	-1.68	-2.38	-2.08
PIK3R5	-2.8	-2.77	-2.7	-2.94
LCE1B	-0.5	-0.36	-0.48	-0.67
CHRNB3	0.23	0.16	0.19	0.35
MORN2	-1.34	-1.26	-1.46	-1.31
MAPK9	-0.37	-0.44	-0.46	-0.21
MYL7	-0.57	-0.43	-0.69	-0.6
VMA22	0.13	0.17	0.06	0.17
UBQLN4	1.99	1.72	1.95	2.31
LOC253289 (retired record)	1.31	1.51	1.16	1.26
TAS2R16	2.85 (active)	2.94	2.76	2.86
PMVK	3.13 (active)	3.41	3.02	2.97
GPR42	1.92	1.91	1.74	2.1
CXXC4	-0.24	-0.21	-0.51	-0.01
FAAH2	-0.03	-0.23	0.01	0.12
LOC400475 (retired record)	-0.14	0.11	-0.67	0.15
ISOC2	0.61	0.82	0.63	0.39
LOC402098 (retired record)	-1.28	-1.1	-1.58	-1.17
LMBR1L	1.06	0.99	1.36	0.82
ILF3-DT	-0.48	-0.04	-1.06	-0.33
GDAP2	-0.86	-0.97	-0.73	-0.89
CSAD	-1.68	-1.4	-1.74	-1.89
FKBP11	-1.23	-1.32	-1.34	-1.04
CES5A	-0.23	-0.23	-0.12	-0.32
NAIP	-0.71	-0.57	-0.64	-0.91
HS3ST1	0.54	0.75	0.31	0.56
ASB16	-0.13	-0.09	0.12	-0.44
F3	0.22	0.16	0.41	0.09
CCDC60	-0.15	0.18	-0.26	-0.39
LOC145780 (retired record)	-0.1	-0.31	0.04	-0.03
ESYT3	1.61	1.76	1.43	1.63
RPL7L1P8	-0.88	-0.88	-0.69	-1.08
FAM91A1	-0.22	-0.18	0.09	-0.57
RHOU	-1.13	-0.97	-1.24	-1.19

7 neighbouring entries from above:
gene knocked down	mean z-score	z-score, replicate A	z-score, replicate B	z-score, replicate C
NAIP	-0.71	-0.57	-0.64	-0.91
HS3ST1	0.54	0.75	0.31	0.56
ASB16	-0.13	-0.09	0.12	-0.44
F3	0.22	0.16	0.41	0.09
CCDC60	-0.15	0.18	-0.26	-0.39
LOC145780 (retired record)	-0.1	-0.31	0.04	-0.03
ESYT3	1.61	1.76	1.43	1.63
